Anti-infective test results gathered from many reports (values: NIAID ChemDB through PubChem).

Common to all: tests in culture

Lines come from different laboratories, so protocols vary.

smiles | organism | strain | mutations | cells | method | read-out | tested at | value
Nc1ncnc2c1ncn2C[C@H](O)CO | Sindbis virus | - | - | VERO | cytopathic effect | EC50 | - | >400 µg/mL
Nc1ncnc2c1ncn2Cc1c(F)cccc1Cl | Cryptosporidium parvum | Calf isolate | - | L929 | - | inhibition | 0.032 µg/mL | 19.66%
CC(C)S(=O)(=O)n1c(N)nc2ccc(/C(=N/O)c3ccccc3)cc21 | Rhinovirus | Serotype 50 | - | HeLa | plaque count | EC50 | - | <0.01 µg/mL
O=C(O)c1cc2oc3ccccc3c2cc1O | Rhinovirus | TYPE 16 | - | HELA-H1 | plaque count | inhibition | 50 µM | 95%
COc1ccc(-c2oc3c(CC=C(C)C)c(OC4O[C@H](CO)[C@@H](O)[C@H](O)[C@H]4O)cc(O)c3c(=O)c2O[C@@H]2O[C@@H](C)[C@H](O)[C@@H](O)[C@H]2O)cc1 | SIV | MAC251 | - | CEMx174 | PCR | EC50 | - | 6.757 µM
CC[C@H]1OC(=O)[C@H](C)[C@@H](O[C@H]2C[C@@](C)(OC)[C@@H](O)[C@H](C)O2)[C@H](C)[C@@H](O[C@@H]2O[C@H](C)C[C@H](N(C)C)[C@H]2O)[C@](C)(OC)C[C@@H](C)C(=O)[C@H](C)[C@@H](O)[C@]1(C)O | Mycobacterium abscessus | V206 | - | - | broth dilution | MIC | - | 4 µg/mL
CC[C@@]1(O)C(=O)OCc2c1cc1n(c2=O)Cc2cc3c(N)c4c(cc3nc2-1)OCO4 | Saccharomyces cerevisiae | Mutant ΔERG6 | - | - | - | MIC | - | >100 µg/mL
Nc1nccc2c1ncn2C[C@@H](CO)OCP(=O)(O)O | Human herpesvirus 6 | GS | - | HSB-2 | antigen / flow cytometry | EC50 | - | 1.2 µM
Nc1nccc2c1ncn2[C@@H]1C=C[C@@H](O)[C@H]1O | Sindbis virus | - | - | VERO | cytopathic effect | EC50 | - | >400 µg/mL
Nc1nc2c(nnn2CCOCP(=O)(O)O)c(=O)[nH]1 | Human herpesvirus 6 | GS | - | HSB-2 | antigen / flow cytometry | EC50 | - | >25 µM
N/C(=N\N=C\c1ccc(Cl)cc1)N/N=C/c1ccc(Cl)cc1 | Cryptosporidium parvum | Human isolate | - | L929 | - | inhibition | 4 µg/mL | -1.26%
CCc1c2c(nc3ccc(O)cc13)-c1cc3c(c(=O)n1C2)COC(=O)[C@]3(O)CC | Saccharomyces cerevisiae | Mutant ΔERG6 ΔTOP1 | - | - | - | MIC | - | >100 µg/mL
O=c1[nH]c(=O)n([C@H]2C[C@H](O)[C@@H](CO)O2)cc1/C=C/Br | Duck hepatitis B virus | - | - | Primary duck hepatocytes | antigen | EC50 | - | >50 µg/mL
CCCCc1cc2c(=O)c(C(=O)OC)c[nH]c2cc1OCc1ccccc1 | Cryptosporidium parvum | Calf isolate | - | L929 | - | inhibition | 0.8 µg/mL | 44%
OC(Cn1cncn1)(Cn1cncn1)c1ccc(F)cc1F | Candida albicans | YL 349 | - | - | broth dilution | MIC | - | >512 µg/mL
COc1cc2oc(=O)ccc2cc1CC(O)C(C)(C)O | Klebsiella pneumoniae | ESBL-3971 | - | - | - | MIC | - | >250 µg/mL
Nc1ncnc2c1ncn2C[C@@H](CF)OCP(=O)(O)O | Human herpesvirus 6 | GS | - | HSB-2 | antigen / flow cytometry | EC50 | - | >300 µM
C#C[C@]1(CO)O[C@@H](n2cnc3c(N)nc(F)nc32)CC1O | HIV-2 | ROD9 | M184V | MAGIC-5A | β-galactosidase / absorbance | fold resistance | - | 26
CN(C)[C@@H]1C(=O)C(C(N)=O)=C(O)[C@@]2(O)C(=O)C3=C(O)c4c(O)c(NC(=O)CNC(F)(F)F)cc(F)c4C[C@H]3C[C@@H]12 | Streptococcus pneumoniae | 106-49619 | - | - | agar diffusion | EC50 | - | 0.5 µg/mL
CC[C@@]1(O)C(=O)OCc2c1cc1n(c2=O)Cc2cc3cc4c(cc3nc2-1)OCO4 | Saccharomyces cerevisiae | Mutant ΔERG6 ΔTOP1 | - | - | - | MIC | - | >100 µg/mL
O=c1c(O)c(-c2ccc(O)c(O)c2)oc2cc(O)cc(O)c12 | Candida tropicalis | Clinical isolate 1 | - | - | broth dilution | MIC50 | - | >128 µg/mL
CO[C@@H]1[C@@H](O[C@@H]2O[C@H](C)[C@@H](O[C@H]3C[C@@](C)(O)[C@@H](O)[C@H](C)O3)[C@H](N(C)C)[C@H]2O)[C@@H](CC=O)C[C@@H](C)[C@@H](O[C@H]2CC[C@H](N(C)C)[C@H](C)O2)/C=C/C=C/C[C@@H](C)OC(=O)C[C@H]1O | Cryptosporidium parvum | Calf isolate | - | L929 | - | EC50 | - | >4 µg/mL
Nc1nccc2c1ncn2[C@@H]1C[C@H](CO)[C@@H](O)[C@H]1O | Vesicular stomatitis virus | - | - | RK-13 | cytopathic effect | EC50 | - | 2 µg/mL
Nc1nccc2c1ncn2C[C@H]1COP(=O)(O)CO1 | Human herpesvirus 6 | GS | - | HSB-2 | antigen / flow cytometry | EC50 | - | 3.7 µM
CC(C)=CCN1c2cc(Cl)cc3[nH]c(=S)n(c23)C[C@@H]1C | HIV-1 | - | RT-L74V K101E | MT-4 | - | EC95 | - | 0.4 µM
C[C@@H]1[C@H](O)[C@@H](C)/C=C/C=C/CC/C=C/C=C/C=C/C=C/C(O[C@H]2O[C@H](C)[C@@H](O)[C@H](N)[C@@H]2O)CC2O[C@](O)(CC(O)C(O)CCC(O)CC(O)CC(O)CC(=O)O[C@H]1C)CC(O)C2C(=O)O | Candida krusei | LM 120 | - | - | broth dilution | MIC100 | - | 64 µg/mL
CC[C@@]1(OC(=O)CN)C(=O)OCc2c1cc1n(c2=O)Cc2cc3c(N)c4c(cc3nc2-1)OCO4 | Saccharomyces cerevisiae | JHY6-1C | - | - | - | MIC | - | 6.25 µg/mL
CC(C)[C@H](NC(=O)[C@H](CCCN=C(N)N)NC(=O)N[C@@H](Cc1ccccc1)C(=O)O)C(=O)N[C@H](C=O)CCCN=C(N)N | Cryptosporidium parvum | - | - | - | - | inhibition | 100 µg/mL | 79.06%
Nc1ccn([C@@H]2O[C@H](CO)[C@@H](O)[C@@H]2O)c(=O)n1 | Duck hepatitis B virus | - | - | Primary duck hepatocytes | antigen | EC50 | - | >100 µg/mL
CC(C)(CO)C(=O)SCCOP(=O)(NCc1ccccc1)OC[C@H]1O[C@@H](n2cnc3c(=O)[nH]c(N)nc32)[C@](C)(O)[C@@H]1O | Hepatitis C virus | GT1b | L31V | Replicon cells | replicon | fold resistance | - | 0.92
C#CC[C@@H](C(=O)N[C@H](/C=C/C(=O)OCC)C[C@@H]1CCNC1=O)n1cccc(NC(=O)c2cc(C)on2)c1=O | Rhinovirus | Serotype 38 | - | H1-HELA | cytopathic effect / XTT | inhibition | 0.132 µM | 90%
CN(C)c1cc(NC(=O)CNC(C)(C)C)c(O)c2c1C[C@H]1C[C@H]3[C@H](N(C)C)C(=O)C(C(N)=O)=C(O)[C@@]3(O)C(=O)C1=C2O | Mycobacterium abscessus | X30 | - | - | broth dilution | MIC | - | 0.25 µg/mL
O=c1[nH]c(=O)n([C@@H]2O[C@H](CO)[C@@H](O)[C@@H]2O)cc1/C=C/Br | Duck hepatitis B virus | - | - | Primary duck hepatocytes | antigen | EC50 | - | 50 µg/mL
CC(C)N=C(N)/N=C(\N)Nc1ccc(Cl)cc1 | Cryptosporidium parvum | Calf isolate | - | L929 | - | inhibition | 0.8 µg/mL | 2.59%
Nc1nc(=O)n([C@@H]2O[C@H](CO)[C@@H](O)[C@@H]2F)cc1I | Human herpesvirus 6 | GS | - | HSB-2 | cytopathic effect | EC50 | - | >1 µM
CC[C@H]1C[C@]1(NC(=O)[C@@H]1C[C@@H]2CN1C(=O)[C@H](C(C)(C)C)NC(=O)OCC(C)(C)CCCCc1cccc3c1CN(C3)C(=O)O2)C(=O)NS(=O)(=O)C1CC1 | Hepatitis C virus | JCH4 | - | Huh7.5 | antigen | EC50 | - | 0.065 µM
COc1cc(C[C@H](C)[C@H](C)Cc2ccc(O)c(O)c2)ccc1O | Candida albicans | CCC 128-2000 | - | - | broth dilution | MIC100 | - | 62.5 µg/mL
CC[C@@]1(O)C(=O)OCc2c1cc1n(c2=O)Cc2c-1nc1cc3c(cc1c2CCl)OCO3 | Saccharomyces cerevisiae | JHY6-1C | - | - | - | MIC | - | 3.12 µg/mL
O=c1c2ccccc2ccc2ccccc12 | Rhinovirus | TYPE 16 | - | HELA-H1 | plaque count | inhibition | 20 µM | 90%
c1cc(CN2CCCNCCNCCCNCC2)ccc1CN1CCCNCCNCCCNCC1 | HIV-1 | SW5 CLADE C R5 | - | PBMC | p24 | inhibition | 0.1 µM | 6%
N#CC(c1ccc(Cl)cc1)c1c(Cl)cc(-n2ncc(=O)[nH]c2=O)cc1Cl | Cryptosporidium parvum | Calf isolate | - | L929 | - | inhibition | 20 µg/mL | 24.81%
CC(=O)N1CCN(c2ccc(OC[C@H]3CO[C@](Cn4ccnc4)(c4ccc(Cl)cc4Cl)O3)cc2)CC1 | Candida albicans | Isogenic isolate 4 MDR1 (25X) | - | - | - | MIC | - | ≤0.008 µg/mL
CC[C@@]1(OC(=O)CN)C(=O)OCc2c1cc1n(c2=O)Cc2cc3ccccc3nc2-1 | Saccharomyces cerevisiae | Mutant ΔERG6 ΔTOP1 | - | - | - | MIC | - | >100 µg/mL
CCCCN(CCCC)CCC(O)c1cc2c(Cl)cc(Cl)cc2c2cc(C(F)(F)F)ccc12 | Cryptosporidium parvum | Calf isolate | - | L929 | - | inhibition | 0.032 µg/mL | -1.73%
Cc1cc(S(N)(=O)=O)ccc1NC(=O)COc1ccc(Cl)cc1C(=O)c1cc(Cl)cc(C#N)c1 | HIV-1 | NNRTI-resistant (RT V106A) | RT-V106A | MAGI | β-galactosidase | fold resistance | - | 6.54
CC(=O)N[C@@H](CC(C)C)C(=O)N[C@@H](CC(C)C)C(=O)N[C@H](C=O)CCCN=C(N)N | Cryptosporidium parvum | - | - | - | cell count / microscopy | inhibition | 5 µg/mL | 10.9%
CC1(C)N=C(N)N=C(N)N1c1ccc(Cl)cc1 | Cryptosporidium parvum | Calf isolate | - | L929 | - | inhibition | 0.032 µg/mL | 16.95%
Nc1nc2c(ncn2COC(CO)CO)c(=O)[nH]1 | Duck hepatitis B virus | - | - | Primary duck hepatocytes | antigen | EC50 | - | 50 µg/mL
Cc1cn([C@H]2C=C[C@@H](CO)O2)c(=O)[nH]c1=O | HIV-2 | ROD9 | - | MAGIC-5A | β-galactosidase / absorbance | EC50 | - | 0.8 µM
Nc1nc(N)c2ncn(CCOCP(=O)(O)O)c2n1 | Duck hepatitis B virus | - | - | Primary duck hepatocytes | antigen | EC50 | - | 0.8 µg/mL
NC(=O)c1ncn([C@@H]2O[C@H](CO)[C@@H](O)[C@H]2O)n1 | Pichinde virus | - | - | VERO | plaque count | EC50 | - | 24 µM
Cc1cn([C@H]2C[C@H](N=[N+]=[N-])[C@@H](CO)O2)c(=O)[nH]c1=O | Duck hepatitis B virus | - | - | Primary duck hepatocytes | antigen | EC50 | - | 10 µg/mL
CC(C)(C)OC(=O)N[C@@H]1CCCCC/C=C\[C@@H]2C[C@@]2(C(=O)NS(=O)(=O)C2CC2)NC(=O)[C@@H]2C[C@@H](OC(=O)N3Cc4cccc(F)c4C3)CN2C1=O | Hepatitis C virus | SA13 | - | Huh7.5 | antigen | EC50 | - | 0.03 µM

3 of the rows above, restated:

smiles | organism | strain | mutations | cells | method | read-out | tested at | value
CCCCN(CCCC)CCC(O)c1cc2c(Cl)cc(Cl)cc2c2cc(C(F)(F)F)ccc12 | Cryptosporidium parvum | Calf isolate | - | L929 | - | inhibition | 0.032 µg/mL | -1.73%
CC(C)(CO)C(=O)SCCOP(=O)(NCc1ccccc1)OC[C@H]1O[C@@H](n2cnc3c(=O)[nH]c(N)nc32)[C@](C)(O)[C@@H]1O | Hepatitis C virus | GT1b | L31V | Replicon cells | replicon | fold resistance | - | 0.92
Nc1nccc2c1ncn2C[C@H]1COP(=O)(O)CO1 | Human herpesvirus 6 | GS | - | HSB-2 | antigen / flow cytometry | EC50 | - | 3.7 µM

Fold resistance has wild type as its base. MIC50, MIC90 and the like: level of inhibition, or share of isolates inhibited. Percent inhibition refers to the dose given; in toxicity tests it is the harm to the cells. Blank or dashed fields: not listed here. ECn is the concentration giving n% inhibition of infection, replication or growth.